Measured data: PubChem BioAssay AID1224833 (University of Georgia, 2016)

Test: 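Human genes whose knock-down alters rotavirus replication in monkey cells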 (primary screen)
System: monkey MA104 kidney cells
Knock-down reagent: siRNA pool against human genes, 50 nM
Time to read-out: 48 h knock-down before infection; read 24 h after infection
Challenge: infection with rotavirus strain RV3 two days after transfection; infectious dose for this stage not given
Measurement: 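Rotavirus antigen per well by fluorescent immunoassay, normalised to non-targeting control wells on each plate and given as a standard z-score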
Direction: z-score vs non-targeting control: higher = more rotavirus replication than with non-targeting control
Call rule: In these data the active calls have z-score vs non-targeting control at about -1 or lower, or at about 1 or higher
Meaning of the calls: active = z-score beyond 1 either way; inactive = z-score within 1 of zero
The whole screen tested about 12,000 reagents; shown is an unselected part. Over the whole deposit, about 5,600 (46%) were called active. 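Active calls cover z-scores past 1 in both directions, so they include lowered as well as raised rotavirus replication.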

no.	gene knocked down	z-score vs non-targeting control	outcome
1	H2BC17	-3.66	active
2	ZFP37	-0.571	inactive
3	SRP54	0.518	inactive
4	HDHD5	-1.38	active
5	HLA-DMB	-0.634	inactive
6	MT1A	-0.334	inactive
7	EIF4EBP2	0.472	inactive
8	KRTAP4-11	-0.0877	inactive
9	PSAPL1	0.591	inactive
10	SLC25A15	-0.344	inactive
11	SLITRK5	-0.729	inactive
12	LRRC25	-1.26	active
13	SELENOW	0.287	inactive
14	TAMALIN	-0.307	inactive
15	MOV10	-0.662	inactive
16	GNS	-1.74	active
17	LRRC34	1.97	active
18	BRIX1	0.468	inactive
19	RTEL1	-1.42	active
20	LAPTM4A	0.361	inactive
21	PGRMC2	-0.94	inactive
22	F8A1	0.07	inactive

5 entries from above, reformatted:
{"gene knocked down": "H2BC17", "z-score vs non-targeting control": -3.66, "outcome": "active"}
{"gene knocked down": "ZFP37", "z-score vs non-targeting control": -0.571, "outcome": "inactive"}
{"gene knocked down": "SRP54", "z-score vs non-targeting control": 0.518, "outcome": "inactive"}
{"gene knocked down": "HDHD5", "z-score vs non-targeting control": -1.38, "outcome": "active"}
{"gene knocked down": "HLA-DMB", "z-score vs non-targeting control": -0.634, "outcome": "inactive"}

More entries follow:
no.	gene knocked down	z-score vs non-targeting control	outcome
23	TSPAN12	0.127	inactive
24	EPS8L1	0.201	inactive
25	ST3GAL1	-1.06	active
26	OR52B4	0.177	inactive
27	IGFLR1	0.501	inactive
28	RPP25	0.126	inactive
29	GSDME	0.292	inactive
30	AZU1	2.04	active
31	PCOLCE	-1.12	active
32	RPL9	0.757	inactive
33	FAAP100	-0.643	inactive
34	PEMT	-1.42	active
35	SPCS1	-1.16	active
36	KLHL42	-1.45	active
37	ZNF25	-1.31	active
38	DOK7	1.06	active
39	PRR32	-1.42	active
40	PDSS1	-1.17	active
41	GALT	-1.03	active
42	PIGC	-0.705	inactive
43	ZNF574	-0.0829	inactive
44	PARVB	-0.543	inactive
45	NOVA2	0.319	inactive
